Anti-infective test results gathered from many reports (values: NIAID ChemDB through PubChem).

Common to all: tests on isolated targets

Fold resistance: result on the changed form divided by that on wild type. Two numbers with a dash give a range or band. Inhibition is in % at the dose shown (toxicity tests: loss of growth or viability). Rows are shuffled and stem from different studies. ICn is the concentration giving n% inhibition.

{"smiles": "CC(C)=CCN1Cc2cccc3[nH]c(=S)n(c23)C[C@@H]1C", "changes": "RT-Y271S", "method": "nucleotide incorporation", "organism": "HIV", "target": "Reverse transcriptase", "read-out": "fold resistance", "value": ">200"}
{"smiles": "Nc1ccn([C@@H]2CS[C@H](COP(=O)(O)OP(=O)(O)OP(=O)(O)O)O2)c(=O)n1", "changes": "RT-L74V", "method": "radiometric", "organism": "HIV", "target": "Reverse transcriptase", "read-out": "fold resistance", "value": "1.7"}
{"smiles": "CC(C)(C#Cc1ccc(NC(=O)CSc2nnnn2-c2ccc(CC3CC3)cc2Cl)c(Cl)c1)C(=O)O", "method": "PicoGreen / fluorescence", "organism": "HIV-1", "strain or isolate": "WT", "target": "Reverse transcriptase", "read-out": "IC50", "value": "<1 µM"}
{"smiles": "CC(C)(C)NC(=O)[C@@H]1CC2CCCCC2CN1C(=O)[C@@H](O)[C@H](Cc1ccccc1)NC(=O)[C@H](CS(C)(=O)=O)NC(=O)COc1cccc2ccccc12", "dose": "0.05 µM", "organism": "HIV-1", "target": "Protease", "read-out": "inhibition", "value": "4.1%"}
{"smiles": "CC(C)(C#Cc1ccc(NC(=O)CSc2nnnn2-c2ccc(C3CC3)cc2Cl)c(Cl)c1)NC(=O)N1CCNCC1", "changes": "RT-K103 Y181C", "method": "PicoGreen / fluorescence", "organism": "HIV-1", "target": "Reverse transcriptase", "read-out": "IC50", "value": "<1 µM"}
{"smiles": "CS(=O)(=O)Oc1c(=O)c(Br)cn2ccn(Cc3cccc(Cl)c3)c(=O)c12", "method": "ELISA", "organism": "HIV-1", "target": "Integrase", "read-out": "IC50", "value": "0.1–1 µM"}
{"smiles": "CC(C)[C@H](NC(=O)[C@@H]1CCCN1C(=O)[C@H](O)[C@H](Cc1ccccc1)NC(=O)OC(C)(C)C)C(=O)OC1CCCCC1", "dose": "1000 µM", "organism": "HIV-1", "target": "Protease", "read-out": "inhibition", "value": "11.7%"}
{"smiles": "O=C1c2c(O)c(=O)c(-c3nccs3)cn2CCN1Cc1cc2ccccc2o1", "method": "ELISA", "organism": "HIV-1", "target": "Integrase", "read-out": "IC50", "value": "<0.01 µM"}
{"smiles": "CC(C)(C)c1ccc(-n2nnnc2SCC(=O)Nc2ccc(OCC(=O)NCC(=O)O)cc2Cl)c(Cl)c1", "method": "PicoGreen / fluorescence", "organism": "HIV-1", "strain or isolate": "WT", "target": "Reverse transcriptase", "read-out": "IC50", "value": "<1 µM"}
{"smiles": "O=c1c(-c2ccc(O)cc2)cn2ccn(Cc3cccc(Cl)c3)c(=O)c2c1O", "method": "ELISA", "organism": "HIV-1", "target": "Integrase", "read-out": "IC50", "value": "0.01–0.1 µM"}
{"smiles": "CC(C)(C)NC(=O)[C@@H]1CCCN1C(=O)[C@@H](O)[C@H](Cc1ccccc1)NC(=O)[C@H](CC(=O)NN)NC(=O)OCc1cccc2ccccc12", "dose": "0.05 µM", "organism": "HIV-1", "target": "Protease", "read-out": "inhibition", "value": "72.8%"}
{"smiles": "CNC(=O)c1cc(F)ccc1CCCN1CCn2cc(-c3nccs3)c(=O)c(O)c2C1=O", "method": "ELISA", "organism": "HIV-1", "target": "Integrase", "read-out": "IC50", "value": "0.01–0.1 µM"}
{"smiles": "CC(C)(CO)NC(=O)[C@@H]1CCCN1C(=O)[C@@H](O)[C@H](Cc1ccccc1)NC(=O)[C@H](CC(N)=O)NC(=O)OCc1ccccc1", "dose": "0.05 µM", "organism": "HIV-1", "target": "Protease", "read-out": "inhibition", "value": "37.8%"}
{"smiles": "O=Cc1cc(=O)c(O)c2n1CCN(Cc1ccc(Cl)c(Cl)c1)C2=O", "method": "ELISA", "organism": "HIV-1", "target": "Integrase", "read-out": "IC50", "value": "0.01–0.1 µM"}
{"smiles": "CC(C)[C@H](NC(=O)COc1cccc2ccccc12)C(=O)N[C@@H](Cc1ccccc1)[C@H](O)C(=O)N1CSC[C@H]1C(=O)NC(C)(C)C", "dose": "0.05 µM", "organism": "HIV-1", "target": "Protease", "read-out": "inhibition", "value": "94.5%"}

The last 2 rows once more:

O=Cc1cc(=O)c(O)c2n1CCN(Cc1ccc(Cl)c(Cl)c1)C2=O ; method: ELISA ; organism: HIV-1 ; target: Integrase ; read-out: IC50 ; value: 0.01–0.1 µM
CC(C)[C@H](NC(=O)COc1cccc2ccccc12)C(=O)N[C@@H](Cc1ccccc1)[C@H](O)C(=O)N1CSC[C@H]1C(=O)NC(C)(C)C ; dose: 0.05 µM ; organism: HIV-1 ; target: Protease ; read-out: inhibition ; value: 94.5%